Data as given in PubChem BioAssay AID1259414 (Drosophila RNAi Screening Center, 2018).

Test: 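Host factors increasing or decreasing Wolbachia levels in cultured fly cells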 (primary screen)
Cell system: Drosophila JW18 cells infected with Wolbachia
Knock-down reagent: long dsRNA against Drosophila genes, 0.25 µg dsRNA per well of a 384-well plate
Duration: 5 days
Treatment: cells persistently infected with Wolbachia before knock-down; no added drug
Detection: 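Automated imaging of bacterial rRNA staining divided by host cell count, reported as plate-normalised robust z-score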
Reading the numbers: Wolbachia per cell robust z: higher = more Wolbachia per host cell than the plate typical
Active means: 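Hit when robust z is 1.5 or more, or -1.5 or less, in at least two of three replicates; excludes dsRNAs with several or no targets, genes not expressed in JW18 and well A1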
The deposit covers about 24,000 reagents; below is an unselected part of those that have a named target and a result. Of all reagents, about 1,210 (5%) are marked active. 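Inactive calls also include excluded dsRNAs with several or no targets, genes unexpressed in JW18, and well A1, regardless of score.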 Unmarked entries are inactive. Reagents against one gene are numbered here. Names joined by + are all predicted targets of the reagent.

Target gene | dsRNA no. | Wolbachia per cell robust z, rep 1 | Wolbachia per cell robust z, rep 2 | Wolbachia per cell robust z, rep 3
CG14229 | 1 | 1.23 | 1.94 | 0.782
CG14229 | 2 | 0.338 | 0.353 | 0.437
CG10163 | 1 | 1.08 | 0.497 | 0.393
CG13404 | 1 | 0.989 | 0.31 | -0.776
snama | 1 | -4.21 | -0.581 | -0.841
snama | 2 | 0.0792 | -0.748 | -0.262
retn | 1 | -2.01 | -1.43 | -0.682
retn | 2 | 0.997 | -0.0891 | 0.0956
botv | 1 | 0.771 | -0.993 | 0.049
botv | 2 | 1.43 | -1.04 | -0.778
Pldn | 1 | -0.337 | 0.16 | -1.75
Pldn | 2 | -0.566 | 0.28 | 0.485
CG17440 + Cfp1 | 1 | -0.379 | -0.572 | -0.925
Daxx | 1 | -0.887 | 1.79 | -0.352
Daxx | 2 | 0.678 | -1.34 | -0.322
br | 1 | 0.589 | 0.646 | 0.0363
br | 2 | 0.864 | -1.4 | -0.876
br | 3 | -1.37 | 0.13 | -0.226
br | 4 | 0.194 | 0.863 | -0.333
br | 5 | -0.795 | 1.22 | -0.714
CG3568 | 1 | 0.0124 | -0.114 | -3.99
CG3568 | 2 | -0.00191 | 0.633 | 0.938
tei | 1 | 0.881 | 1.46 | 0.739
tei | 2 | -0.606 | -0.109 | -1.42
CG18234 | 1 | -3.34 | 0.388 | 1.15
CG31820 | 1 | 1.26 | 1.03 | 1.02
CG31820 | 2 | -5.71 | -3.67 | -5.69
pns | 1 | 0.419 | -0.111 | -2.22
Capr | 1 | -0.274 | 0.981 | 0.256
Capr | 2 | 0.318 | -0.216 | -0.668

Continued, starting with the last 5 of the part before.
Target gene | dsRNA no. | Wolbachia per cell robust z, rep 1 | Wolbachia per cell robust z, rep 2 | Wolbachia per cell robust z, rep 3
CG31820 | 1 | 1.26 | 1.03 | 1.02
CG31820 | 2 | -5.71 | -3.67 | -5.69
pns | 1 | 0.419 | -0.111 | -2.22
Capr | 1 | -0.274 | 0.981 | 0.256
Capr | 2 | 0.318 | -0.216 | -0.668
CG31937 | 1 | 0.36 | -0.0696 | 0.869
MCU | 1 | 0.16 | 0.115 | -5.3
boca | 1 | -0.006 | 0.857 | -1.16
et | 1 | 0.925 | -0.179 | 0.328
CG31370 | 1 | 0.695 | 0.489 | -1.3
prd1 | 1 | -2.13 | 0.4 | 0.775
CG44434 + CG44433 + CG44435 | 1 | 0.734 | 0.596 | -1.68
CG44434 + CG44433 + CG44435 | 2 | -4.48 | -0.0831 | 0.371
CG11634 | 1 | -0.498 | -4.69 | 0.411
Spn28F | 1 | -1.49 | 0.547 | -0.803
Spn28F | 2 | -0.832 | 1.52 | -1.28
Orc2 | 1 | -0.676 | 1.28 | 0.556
CG32762 | 1 | 1.13 | -4.19 | 0.823
CG32762 | 2 | 0.402 | 0.438 | -7.76
Kr | 1 | -0.386 | -3.13 | -0.647
mthl14 | 1 | 0.262 | 1.3 | -0.237
Rpt4R | 1 | -0.242 | -0.74 | -0.67
Rpt4R | 2 | 0.707 | -0.31 | 1
cmb | 1 | 0.44 | -0.243 | 1.28
cmb | 2 | -0.208 | -0.899 | -13.6
cmb | 3 | -5.64 | 1.46 | -0.852
BaraA1 + BaraA2 | 1 | 0.971 | -0.892 | 0.147
vas + solo | 1 | 0.647 | -1.94 | 0.814
vas + solo | 2 | 0.00713 | -0.227 | -0.527
vas + solo | 3 | -1.16 | -0.642 | -0.164
CR17438 | 1 | 0.489 | 0.41 | 0.466
CR17438 | 2 | -0.48 | 0.146 | 0.0347
Dlic | 1 | -1.06 | -0.21 | -0.256
CG13220 | 1 | -0.542 | -1.14 | 0.101
galene | 1 | 0.67 | 0.816 | 0.271
galene | 2 | -0.315 (active) | -3.45 | -3.41
Snoo | 1 | -0.11 | 0.587 | -0.653
Snoo | 2 | 0.706 | -3.16 | -1.05
CG12782 | 1 | -0.0016 | 0.114 | 0.023
CG15239 | 1 | 0.649 | -0.0769 | -0.314
CG15239 | 2 | 1.49 | 0.353 | 1.19
ergic53 | 1 | 0.944 | 1.54 | 0.974
ebo + l(1)1Bb | 1 | -1.33 | -0.757 | -0.445
ebo + l(1)1Bb | 2 | 0.491 | 1.06 | 0.763
Trl + CG42507 | 1 | -1.07 | -1.89 | -0.243
Trl + CG42507 | 2 | -2.33 | -2.75 | -1.34
vir-1 | 1 | 0.783 | -0.811 | 0.383
vir-1 | 2 | 1.22 (active) | -6.97 | -5.25
vir-1 | 3 | 0.309 | -0.406 | 0.71
CG34211 | 1 | -1.07 | 0.308 | 0.561
CG33642 | 1 | -3.63 | -0.461 | 0.851
Nepl20 | 1 | -0.259 | -3.4 | -0.501
cd | 1 | -0.172 | -1.19 | 0.329
PI31 | 1 | 0.356 | 0.119 | 0.805
CG9394 | 1 | 0.469 | -4.58 | 0.566
CG5004 | 1 | -0.129 | 0.0889 | 0.361
CG5004 | 2 | -0.647 | 0.616 | 0.892
CG9568 | 1 | -0.798 | -0.878 | -1.93
CG3581 | 1 | 0.729 | -2.17 | -0.129
CG10793 | 1 | 0.328 | -1.16 | 0.176
alphaSnap | 1 | 0.934 | 1.6 | 0.727
alphaSnap | 2 | 5.19 | 4.05 | 8.89
